The record followed here is patent US8828930B2, “Hepatitis C virus NS3 protease inhibitors” (Merck Sharp & Dohme Corp., priority 2009, dated 2014).

By UniProt entry, the sequences of proteins in these tests, tags left out. Where a name states a change or a piece, a line headed by the entry shows the natural chain unless it says otherwise. Residues count along the entry.
UniProt P26663, 1658-1711 partner limits assumed: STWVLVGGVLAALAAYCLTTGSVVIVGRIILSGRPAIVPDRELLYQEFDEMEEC
UniProt P26663, 1027-1657 limits assumed: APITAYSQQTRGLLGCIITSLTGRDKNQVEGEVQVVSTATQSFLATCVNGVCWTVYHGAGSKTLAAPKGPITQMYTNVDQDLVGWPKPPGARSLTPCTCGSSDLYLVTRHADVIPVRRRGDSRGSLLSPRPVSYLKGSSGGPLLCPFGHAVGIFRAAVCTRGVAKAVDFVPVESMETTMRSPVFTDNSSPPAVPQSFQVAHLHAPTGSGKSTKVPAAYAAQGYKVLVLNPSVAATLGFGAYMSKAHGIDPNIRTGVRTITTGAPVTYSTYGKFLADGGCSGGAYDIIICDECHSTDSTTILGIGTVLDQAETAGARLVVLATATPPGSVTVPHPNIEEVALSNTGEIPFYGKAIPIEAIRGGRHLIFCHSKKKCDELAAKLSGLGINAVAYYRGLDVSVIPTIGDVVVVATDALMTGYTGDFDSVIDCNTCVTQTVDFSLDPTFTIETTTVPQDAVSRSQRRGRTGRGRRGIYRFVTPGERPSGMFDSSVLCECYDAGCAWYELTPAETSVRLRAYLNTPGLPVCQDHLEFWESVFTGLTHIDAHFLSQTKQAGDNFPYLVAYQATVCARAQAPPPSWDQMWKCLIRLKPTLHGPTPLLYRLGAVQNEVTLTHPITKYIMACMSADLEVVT
UniProt P26663, 1027-1657 A1182V limits assumed: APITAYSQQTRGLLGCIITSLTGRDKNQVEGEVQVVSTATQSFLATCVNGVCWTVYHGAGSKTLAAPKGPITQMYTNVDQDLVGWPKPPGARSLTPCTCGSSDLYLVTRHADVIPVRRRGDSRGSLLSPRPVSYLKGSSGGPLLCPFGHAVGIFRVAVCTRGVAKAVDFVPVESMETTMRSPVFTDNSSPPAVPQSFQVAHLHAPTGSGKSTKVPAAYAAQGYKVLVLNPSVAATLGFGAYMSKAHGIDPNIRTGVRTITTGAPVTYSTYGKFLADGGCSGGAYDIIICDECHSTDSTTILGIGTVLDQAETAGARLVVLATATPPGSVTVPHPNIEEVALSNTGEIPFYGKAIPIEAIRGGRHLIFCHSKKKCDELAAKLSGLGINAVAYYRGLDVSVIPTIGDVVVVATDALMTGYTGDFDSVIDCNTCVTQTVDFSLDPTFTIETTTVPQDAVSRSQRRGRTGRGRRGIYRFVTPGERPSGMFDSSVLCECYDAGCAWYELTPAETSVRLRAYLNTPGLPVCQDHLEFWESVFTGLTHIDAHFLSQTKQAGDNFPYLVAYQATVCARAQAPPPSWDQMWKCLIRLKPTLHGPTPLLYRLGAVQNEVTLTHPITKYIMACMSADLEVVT
UniProt Q81258, 1033-1663 limits assumed: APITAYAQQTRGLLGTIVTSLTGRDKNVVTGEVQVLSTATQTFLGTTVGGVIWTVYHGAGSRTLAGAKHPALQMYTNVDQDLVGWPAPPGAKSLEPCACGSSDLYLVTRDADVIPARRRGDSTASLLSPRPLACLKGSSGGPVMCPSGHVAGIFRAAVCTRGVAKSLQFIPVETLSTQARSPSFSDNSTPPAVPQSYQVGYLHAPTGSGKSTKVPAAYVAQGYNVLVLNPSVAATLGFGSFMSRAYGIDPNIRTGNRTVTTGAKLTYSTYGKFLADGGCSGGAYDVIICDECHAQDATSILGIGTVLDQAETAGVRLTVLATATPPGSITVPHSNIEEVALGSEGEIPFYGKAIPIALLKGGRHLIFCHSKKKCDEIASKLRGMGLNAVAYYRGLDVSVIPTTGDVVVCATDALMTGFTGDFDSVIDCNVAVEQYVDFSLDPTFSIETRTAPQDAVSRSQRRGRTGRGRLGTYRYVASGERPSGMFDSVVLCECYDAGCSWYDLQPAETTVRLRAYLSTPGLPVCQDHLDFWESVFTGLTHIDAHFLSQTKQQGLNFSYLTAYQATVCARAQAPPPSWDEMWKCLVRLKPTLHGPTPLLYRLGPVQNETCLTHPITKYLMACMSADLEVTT
UniProt Q81258, 1664-1717 partner limits assumed: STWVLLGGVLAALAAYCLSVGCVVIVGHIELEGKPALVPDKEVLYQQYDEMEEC

SMILES strings stand for the structures. Like-named read-outs stand apart in the source and are kept apart here.

One test has as its system HCV gt 1b replicon. In words: HCV replicon assay, compound inhibitory potency (Replicon EC50). The method, then: Measurement of inhibition by compounds was performed using the HCV replicon system. Several different replicons encoding different HCV genotypes or mutations were used. In addition, potency measurements were made using different formats of the replicon assay, including different ways of measurements and different plating formats. See Jan M. Vrolijk et al., A replicon-based bioassay for the measurement of interferons in patients with chronic hepatitis C, 110 J. VIROLOGICAL METHODS 201 (2003); Steven S. Carroll et al., Inhibition of Hepatitis C Virus RNA Replication by 2′-Modified Nucleoside Analogs, 278(14) J. BIOLOGICAL CHEMISTRY 11979 (2003). However, the underlying principles are common to all of these determinations, and are outlined below. […]
To initiate an assay, replicon cells were plated in the presence of a dilution series of test compound in the absence of G418. […] For direct quantitation, RNA levels were measured by 32P-probe hybridization and protection, or in a TAQMAN-based assay and normalized to cellular cyclophilin A RNA levels. In some cases, luciferase activity was measured using a conventional luciferase assay. In all cases, EC50 determinations were calculated as a percent of a DMSO control by fitting the data to a four-parameter fit function.
(In antiviral work, replicon cells carry a viral genome segment that copies itself.)

The target of the next test is NS3/4A protease gt 1b (Hepatitis C virus genotype 1b, UniProt P26663). Nature of the test: HCV NS3 protease time-resolved fluorescence (TRF) assay, NS3/4A inhibitory activity (Ki), gt 1b. Type of test: biochemical. The note with it: read-out: gt 1b Ki, NS3/4A enzyme. The protocol:
(§1) The HCV NS3 protease inhibitory activity of the present compounds may be tested using assays known in the art. One such assay is HCV NS3 protease time-resolved fluorescence (TRF) assay as described below and in WO 2006/102087. Other examples of such assays are described in, for example, WO 2005/046712. HCV NS3 protease inhibitors, such as those described herein have a Ki less than 50 μM, such as less than 10 μM, and less than 100 nM. Ki is determined by an NS3 protease assay. The assay is performed in a final volume of 100 μl in assay buffer containing 50 mM HEPES, pH 7.5, 150 mM NaCl, 15% glycerol, 0.15% TRITON X-100, 10 mM DTT, and 0.1% PEG 8000. NS3 protease is preincubated with various concentrations of inhibitors in DMSO for 30 minutes. […] Product fluorescence is detected using either a VICTOR V2 or FUSION fluorophotometer (PERKIN ELMER LIFE AND ANALYTICAL SCIENCES) with excitation at 340 nm and emission at 615 nm with a 400 μs delay. […]
(§2) This NS3 protease assay was performed in a final volume of 100 μl assay buffer containing 50 mM HEPES, pH 7.5, 150 mM NaCl, 15% glycerol, 0.15% TRITON X-100, 10 mM DTT, and 0.1% PEG 8000. […] Product fluorescence was detected using either a V1CTOR V2 or FUSION fluorophotometer (PERKIN ELMER LIFE AND ANALYTICAL SCIENCES) with excitation at 340 nm and emission at 615 nm with a 400 us delay. […]

Another test addresses NS3/4A protease gt 3a (Hepatitis C virus genotype 3a, UniProt Q81258). In words: HCV NS3 protease time-resolved fluorescence (TRF) assay, NS3/4A inhibitory activity (Ki), gt 3a. Type of test: biochemical. The note with it: read-out: gt 3a Ki, NS3/4A enzyme. The protocol:
as §1, §2

Test [1] has as its target NS3/4A protease gt 1b A156V (Hepatitis C virus genotype 1b, UniProt P26663, A1182V). Nature of the test: HCV NS3 protease time-resolved fluorescence (TRF) assay, NS3/4A inhibitory activity (Ki), gt 1b A156V. The format is biochemical. The note with it: read-out: gt 1b A156V Ki; NS3/4A enzyme, genotype 1b A156V mutant. The protocol: as §1, §2

The term EC50 denotes the concentration giving half of the maximal effect. `O=C1N[C@H]2CCCCC/C=C\[C@@H]3C[C@@]3(C(=O)NS(=O)(=O)C3CC3)NC(=O)[C@@H]3C[C@H](CN3C2=O)Oc2nc3ccccc3nc2CCCCC[C@@H]2CCC[C@H]2O1`: the EC50 in the test on HCV gt 1b replicon (read-out: gt 1b Replicon EC50 10% FBS, 10% fetal bovine serum) turned out to be 4 nM; in the test with HCV gt 1b replicon (read-out: gt 1b Replicon EC50 50% NHS, 50% normal human serum), 22 nM. The values for the Ki (on NS3/4A protease gt 1b; on NS3/4A protease gt 3a; in test [1]) were 0.85 nM, 1.88 nM and 8.7 nM, respectively.
